Paper PMC6222871, “Suppression of Hepatitis C Virus Genome Replication and Particle Production by a Novel Diacylglycerol Acyltransferases Inhibitor” (Molecules : A Journal of Synthetic Chemistry and Natural …, 2018)

Tested on: luciferase-linked genotype 2a HCV RNAs
Type: cell-based, hepatitis C virus
Settings: CC50 divided by EC50
Protocol: To order to study impacts of DGAT inhibitors on HCV genome replication independently of the particle production, we decided to examine effects of these twelve DGAT inhibitors on the levels of viral RNA genome and cell viability in parallel. […] Then, we treated them with an increasing concentration of each DGAT inhibitor. Then, luciferase and MTT-based cell viability assays were performed to determine EC50 and CC50 (cytotoxic concentration required to kill 50% of treated cells) values, respectively.
Cell viability was measured with EZ-CYTOX (10% tetrazolium salt; Dogen, Gyeonggi-do, Korea) as described previously. Anti-HCV replication analysis using a luciferase assay was conducted as previously described.

Structure (SMILES)	Therapeutic index (TI)
CC(C)NC(=O)c1cccc(NC(=O)/C=C/c2cn(C(=O)OC(C)(C)C)c3ccccc23)c1 [5a]	1.9
CC(C)(C)OC(=O)n1cc(/C=C/C(=O)Nc2cccc(C(=O)N3CCCC3)c2)c2ccccc21 [5c]	>1.0
CC(C)(C)OC(=O)n1cc(/C=C/C(=O)Nc2cccc(C(=O)NCc3ccco3)c2)c2ccccc21 [5h]	2.2
Cc1ccc(CNC(=O)c2cccc(NC(=O)/C=C/c3cn(C(=O)OC(C)(C)C)c4ccccc34)c2)o1 [5j]	3.0
CC(C)CCn1cc(/C=C/C(=O)N(NC(=O)c2cccc(F)c2)C(C)C)c2ccccc21 [8h]	>1.5
CC(C)CCn1cc(/C=C/C(=O)N(NC(=O)c2ccc(F)cc2)C(C)C)c2ccccc21 [8i]	>2.0
CC(C)=CCn1cc(/C=C/C(=O)N(NC(=O)c2cccc(F)c2)C(C)C)c2ccccc21 [8u]	>1.0
O=C(c1ccc2nc(COc3ccc(C45CC6CC(CC(C6)C4)C5)cc3)[nH]c2c1)N1CCCCC1 [10e]	>1.0
O=C(Nc1ccccc1)c1ccc2nc(COc3ccc(C45CC6CC(CC(C6)C4)C5)cc3)[nH]c2c1 [10f]	>1.0
O=C(NCc1ccccc1)c1ccc2nc(COc3ccc(C45CC6CC(CC(C6)C4)C5)cc3)[nH]c2c1 [10h]	>1.3
O=C(NCc1ccccn1)c1ccc2nc(COc3ccc(C45CC6CC(CC(C6)C4)C5)cc3)[nH]c2c1 [10i]	4.4
O=C(Nc1ccccc1)Nc1ccc(-c2ccc(C(=O)[C@@H]3CCC[C@H]3C(=O)O)cc2)cc1 [A922500, reference compound]	1.4
